{
  "source": "paper PMC9386795",
  "about": "(ACS Omega, 2022)",
  "data": [
    {"system": "P. aeruginosa efflux knockout GKCW120 (PΔ6)", "experiment": "Broth microdilution MIC assay against PA efflux knockout strain", "assay_type": "cell-based, Pseudomonas aeruginosa", "conditions": "n = 3; no visible pathogen growth", "units": {"PΔ6 MIC": "µg/mL"}, "values": [
      {"smiles": "COC(=O)[C@@H](NCc1cc2ccccc2nc1OCc1ccccc1)C(C)C", "note": "[Compound 15, Methyl ((2-(Benzyloxy)quinolin-3-yl)methyl)-L-valinate]", "PΔ6 MIC": "> 256"},
      {"smiles": "COC(=O)[C@@H](CCSC)NCc1cc2ccccc2nc1SC", "note": "[Compound 17, Methyl ((2-(Methylthio)quinolin-3-yl)methyl)-D-methioninate]", "PΔ6 MIC": 256},
      {"smiles": "COC(=O)[C@H](Cc1c[nH]c2ccccc12)NCc1cc2ccccc2nc1OC", "note": "[Compound 18, Methyl ((2-Methoxyquinolin-3-yl)methyl)-L-tryptophanate]", "PΔ6 MIC": "> 256"},
      {"smiles": "COC(=O)[C@H](Cc1c[nH]c2ccccc12)NCc1cc2ccccc2nc1SC", "note": "[Compound 19, Methyl ((2-(Methylthio)quinolin-3-yl)methyl)-L-tryptophanate]", "PΔ6 MIC": "> 256"}
    ]}
  ]
}
